Measured values from several laboratories, pooled; numbers as filed in NIAID ChemDB.

Shared fields: whole-cell or culture tests; species: Mycobacterium kansasii

MIC50, MIC90 and the like: level of inhibition, or share of isolates inhibited.

{"smiles": "Cc1ccc(NC(=O)c2cc(Cl)ccc2OC(=O)[C@@H](Cc2cc3ccccc3[nH]2)NC(=O)OCc2ccccc2)cc1", "strain or isolate": "DSM 44162", "method": "broth dilution", "measure": "MIC100", "result": "13.74 µM"}
{"smiles": "O=C(Oc1ccc(Cl)cc1C(=O)Nc1cccc(C(F)(F)F)c1)c1cnccn1", "strain or isolate": "6509/96", "conditions": "7 d", "measure": "MIC", "result": "4 µM"}
{"smiles": "Cc1ccc(NC(=O)NNC(=O)c2ccncc2)cc1", "strain or isolate": "My 235/80", "method": "broth dilution", "conditions": "21 d", "measure": "MIC100", "result": ">125 µM"}
{"smiles": "O=C(Oc1cc(Cl)ccc1C(=O)Nc1ccc(Cl)cc1)c1cnccn1", "strain or isolate": "6509/96", "conditions": "7 d", "measure": "MIC", "result": "2 µM"}
{"smiles": "CC(C)(C)c1ccc(NC(=O)NNC(=O)c2ccncc2)cc1", "strain or isolate": "My 235/80", "method": "broth dilution", "conditions": "14 d", "measure": "MIC100", "result": "62.5 µM"}
{"smiles": "O=C(Nc1ccc(Cl)c(Cl)c1)c1ccc(Cl)cc1OS(=O)(=O)c1ccccc1", "strain or isolate": "235/80", "conditions": "7 d", "measure": "MIC", "result": "4 µM"}
{"smiles": "O=C(Oc1cc(Cl)ccc1C(=O)Nc1ccc(F)cc1)c1cnccn1", "strain or isolate": "6509/96", "conditions": "21 d", "measure": "MIC", "result": "8 µM"}
{"smiles": "O=c1oc2ccc(F)cc2c(=S)n1-c1ccc(Cl)c(Cl)c1", "strain or isolate": "My 235/80", "conditions": "14 d", "measure": "MIC", "result": "2 µM"}
{"smiles": "CCCCCCCCc1ccc(NC(=O)NNC(=O)c2ccncc2)cc1", "strain or isolate": "My 6509/96", "method": "broth dilution", "conditions": "21 d", "measure": "MIC100", "result": "500 µM"}
{"smiles": "CCOC(=O)c1c(-c2ccccc2)c2ccc(Cl)cc2oc1=O", "strain or isolate": "ATCC 12478", "method": "resazurin", "measure": "MIC90", "result": ">100 µg/mL"}
{"smiles": "S=c1oc2ccc(Br)cc2c(=S)n1-c1ccccc1", "strain or isolate": "6509/96", "conditions": "21 d", "measure": "MIC", "result": "4 µM"}
{"smiles": "COc1ccc(NC(=O)NNC(=O)c2ccncc2)cc1", "strain or isolate": "My 6509/96", "method": "broth dilution", "conditions": "14 d", "measure": "MIC100", "result": ">125 µM"}
{"smiles": "O=c1oc2ccc(F)cc2c(=S)n1-c1ccccc1", "strain or isolate": "6509/96", "conditions": "14 d", "measure": "MIC", "result": "0.5 µM"}
{"smiles": "CC(C)N=c1cc2n(-c3ccc(Cl)cc3)c3ccccc3nc-2cc1Nc1ccc(Cl)cc1", "method": "fluorescence", "measure": "MIC90", "result": "1.776 µg/mL"}
{"smiles": "O=C(Oc1ccc(Br)cc1C(=O)Nc1ccc(C(F)(F)F)cc1)c1cnccn1", "strain or isolate": "235/80", "conditions": "7 d", "measure": "MIC", "result": "2 µM"}
{"smiles": "Cc1ccc(-n2c(=S)oc3ccc(C)cc3c2=S)cc1", "strain or isolate": "6509/96", "conditions": "21 d", "measure": "MIC", "result": "2 µM"}
{"smiles": "O=C(NNC(=O)c1ccncc1)Nc1ccc(Cl)c(Cl)c1", "strain or isolate": "My 235/80", "method": "broth dilution", "conditions": "7 d", "measure": "MIC100", "result": "125 µM"}
{"smiles": "O=C(Oc1cc(Cl)ccc1C(=O)Nc1cccc(F)c1)c1cnccn1", "strain or isolate": "235/80", "conditions": "7 d", "measure": "MIC", "result": "4 µM"}
{"smiles": "CCCCCc1ccc(NC(=O)NNC(=O)c2ccncc2)cc1", "strain or isolate": "My 235/80", "method": "broth dilution", "conditions": "14 d", "measure": "MIC100", "result": "62.5 µM"}
{"smiles": "O=C(Nc1cccc(Cl)c1)c1ccc(Cl)cc1OS(=O)(=O)c1ccccc1", "strain or isolate": "6509/96", "conditions": "21 d", "measure": "MIC", "result": "500 µM"}
{"smiles": "Fc1ccc(-n2c(=S)oc3ccc(Cl)cc3c2=S)cc1", "strain or isolate": "My 235/80", "conditions": "14 d", "measure": "MIC", "result": "8 µM"}
{"smiles": "O=C(Nc1ccc(F)cc1)c1ccc(Cl)cc1OS(=O)(=O)c1ccccc1", "strain or isolate": "235/80", "conditions": "14 d", "measure": "MIC", "result": "32 µM"}
{"smiles": "O=C(Oc1cc(Cl)ccc1C(=O)Nc1ccc(Br)cc1)c1cnccn1", "strain or isolate": "6509/96", "conditions": "7 d", "measure": "MIC", "result": "2 µM"}
{"smiles": "CC(C)[C@H](NC(=O)OCc1ccccc1)C(=O)Oc1ccc(Cl)cc1C(=O)Nc1ccc([N+](=O)[O-])cc1", "strain or isolate": "DSM 44162", "method": "broth dilution", "measure": "MIC100", "result": "7.6 µM"}
{"smiles": "CCCCCCc1ccc(NC(=O)NNC(=O)c2ccncc2)cc1", "strain or isolate": "My 235/80", "method": "broth dilution", "conditions": "7 d", "measure": "MIC100", "result": "32 µM"}
{"smiles": "NC(=O)c1cnccn1", "strain or isolate": "235/80", "conditions": "7 d", "measure": "MIC", "result": "250–1000 µM"}
{"smiles": "O=C(Nc1cccc(F)c1)c1ccc(Cl)cc1OS(=O)(=O)c1ccccc1", "strain or isolate": "235/80", "conditions": "14 d", "measure": "MIC", "result": "32 µM"}
{"smiles": "CCCCCCCNC(=O)NNC(=O)c1ccncc1", "strain or isolate": "My 235/80", "method": "broth dilution", "conditions": "14 d", "measure": "MIC100", "result": "125 µM"}
{"smiles": "O=C(Nc1ccc(C(F)(F)F)cc1)c1ccc(Cl)cc1OS(=O)(=O)c1ccccc1", "strain or isolate": "6509/96", "conditions": "21 d", "measure": "MIC", "result": "4 µM"}
{"smiles": "O=C(NNC(=O)c1ccncc1)Nc1ccc(Cl)c(C(F)(F)F)c1", "strain or isolate": "My 235/80", "method": "broth dilution", "conditions": "14 d", "measure": "MIC100", "result": "125 µM"}

Two numbers with a dash give a range or band. Conditions beyond the fields shown may differ between rows.